Assays:
[1] = system: Bacillus anthracis; assay: Antimicrobial activity against Bacillus anthracis A03768 assessed as change in fluorescence threshold cycle at 0.25 ug/ml after 4 hrs by real-time PCR viability assay relative to control
[2] = system: Bacillus anthracis; assay: Antimicrobial activity against Bacillus anthracis A0419 assessed as change in fluorescence threshold cycle at 0.25 ug/ml after 4 hrs by real-time PCR viability assay relative to control
[3] = system: Bacillus anthracis; assay: Antimicrobial activity against pXO1-positive and pXO2 negative Bacillus anthracis 34F2 assessed as change in fluorescence threshold cycle at 0.5 ug/ml after 4 hrs by real-time PCR viability assay relative to control
[4] = system: Bacillus anthracis; assay: Antimicrobial activity against pXO1-positive and pXO2 negative Bacillus anthracis 34F2 assessed as change in fluorescence threshold cycle at 0.25 ug/ml after 4 hrs by real-time PCR viability assay relative to control
[5] = system: Bacillus anthracis; assay: Antimicrobial activity against Bacillus anthracis A0102 assessed as change in fluorescence threshold cycle at 0.12 ug/ml after 4 hrs by real-time PCR viability assay relative to control
[6] = system: Bacillus anthracis; assay: Antimicrobial activity against Bacillus anthracis A0248 assessed as change in fluorescence threshold cycle at 0.06 ug/ml after 4 hrs by real-time PCR viability assay relative to control
[7] = system: Bacillus anthracis; assay: Antimicrobial activity against pXO1-positive and pXO2 negative Bacillus anthracis 34F2 assessed as change in fluorescence threshold cycle at 4 ug/ml after 4 hrs by real-time PCR viability assay relative to control
[8] = system: Bacillus anthracis; assay: Antimicrobial activity against Bacillus anthracis A03768 assessed as change in fluorescence threshold cycle at 0.06 ug/ml after 4 hrs by real-time PCR viability assay relative to control
[9] = system: Bacillus anthracis; assay: Antimicrobial activity against Bacillus anthracis A0264 assessed as change in fluorescence threshold cycle at 8 ug/ml after 4 hrs by real-time PCR viability assay relative to control
[10] = system: Bacillus anthracis; assay: Antimicrobial activity against Bacillus anthracis A0488 assessed as change in fluorescence threshold cycle at 0.5 ug/ml after 4 hrs by real-time PCR viability assay relative to control
[11] = system: Bacillus anthracis; assay: Antimicrobial activity against Bacillus anthracis A0102 assessed as change in fluorescence threshold cycle at 0.5 ug/ml after 4 hrs by real-time PCR viability assay relative to control
[12] = system: Bacillus anthracis; assay: Antimicrobial activity against pXO1-positive and pXO2 negative Bacillus anthracis 34F2 assessed as change in fluorescence threshold cycle at 0.06 ug/ml after 4 hrs by real-time PCR viability assay relative to control
[13] = system: Bacillus anthracis; assay: Antimicrobial activity against Bacillus anthracis A0488 assessed as change in fluorescence threshold cycle at 4 ug/ml after 4 hrs by real-time PCR viability assay relative to control
[14] = system: Bacillus anthracis; assay: Antimicrobial activity against Bacillus anthracis A0188 assessed as change in fluorescence threshold cycle at 0.5 ug/ml after 4 hrs by real-time PCR viability assay relative to control
[15] = system: Bacillus anthracis; assay: Antimicrobial activity against Bacillus anthracis 240 assessed as change in fluorescence threshold cycle at 1 ug/ml after 4 hrs by real-time PCR viability assay relative to control
[16] = system: Bacillus anthracis; assay: Antimicrobial activity against Bacillus anthracis A0419 assessed as change in fluorescence threshold cycle at 0.12 ug/ml after 4 hrs by real-time PCR viability assay relative to control
[17] = system: Bacillus anthracis; assay: Antimicrobial activity against Bacillus anthracis A0488 assessed as change in fluorescence threshold cycle at 16 ug/ml after 4 hrs by real-time PCR viability assay relative to control
[18] = system: Bacillus anthracis; assay: Antimicrobial activity against Bacillus anthracis 240 assessed as change in fluorescence threshold cycle at 0.25 ug/ml after 4 hrs by real-time PCR viability assay relative to control
[19] = system: Bacillus anthracis; assay: Antimicrobial activity against Bacillus anthracis 240 assessed as change in fluorescence threshold cycle at 0.5 ug/ml after 4 hrs by real-time PCR viability assay relative to control
[20] = system: Bacillus anthracis; assay: Antimicrobial activity against Bacillus anthracis A0193 assessed as change in fluorescence threshold cycle at 0.25 ug/ml after 4 hrs by real-time PCR viability assay relative to control
[21] = system: Bacillus anthracis; assay: Antimicrobial activity against Bacillus anthracis A0462 assessed as change in fluorescence threshold cycle at 0.5 ug/ml after 4 hrs by real-time PCR viability assay relative to control
[22] = system: Bacillus anthracis; assay: Antimicrobial activity against Bacillus anthracis A0248 assessed as change in fluorescence threshold cycle at 4 ug/ml after 4 hrs by real-time PCR viability assay relative to control
[23] = system: Bacillus anthracis; assay: Antimicrobial activity against Bacillus anthracis A0465 assessed as change in fluorescence threshold cycle at 16 ug/ml after 4 hrs by real-time PCR viability assay relative to control
[24] = system: Bacillus anthracis; assay: Antimicrobial activity against Bacillus anthracis A0465 assessed as change in fluorescence threshold cycle at 0.5 ug/ml after 4 hrs by real-time PCR viability assay relative to control
[25] = system: Bacillus anthracis; assay: Antimicrobial activity against Bacillus anthracis A0465 assessed as change in fluorescence threshold cycle at 0.12 ug/ml after 4 hrs by real-time PCR viability assay relative to control
[26] = system: Bacillus anthracis; assay: Antimicrobial activity against Bacillus anthracis A0419 assessed as change in fluorescence threshold cycle at 16 ug/ml after 4 hrs by real-time PCR viability assay relative to control
[27] = system: Bacillus anthracis; assay: Antimicrobial activity against Bacillus anthracis A0248 assessed as change in fluorescence threshold cycle at 16 ug/ml after 4 hrs by real-time PCR viability assay relative to control
[28] = system: Bacillus anthracis; assay: Antimicrobial activity against Bacillus anthracis A0193 assessed as change in fluorescence threshold cycle at 4 ug/ml after 4 hrs by real-time PCR viability assay relative to control

SMILES | deltaCT [1] | deltaCT [2] | deltaCT [3] | deltaCT [4] | deltaCT [5] | deltaCT [6] | deltaCT [7] | deltaCT [8] | deltaCT [9] | deltaCT [10] | deltaCT [11] | deltaCT [12] | deltaCT [13] | deltaCT [14] | deltaCT [15] | deltaCT [16] | deltaCT [17] | deltaCT [18] | deltaCT [19] | deltaCT [20] | also measured
O=C(O)c1cn(C2CC2)c2cc(N3CCNCC3)c(F)cc2c1=O [CIPROFLOXACIN] | 3.14 | 0.44 | 3.2 | 7.89 | 0.82 | 1.52 | 0.61 | 7.37 | 0.43 | 2.19 | 8.69 | 7.17 | 0.07 | 9.05 | 0.72 | 7.59 | 6.83 | 7.06 | 8.17 | 8.15 | deltaCT [21]: 8.06; deltaCT [22]: 7.36; deltaCT [23]: 8.64; deltaCT [24]: 5.34; deltaCT [25]: 6.73; deltaCT [26]: 7.78; deltaCT [27]: 4.58; deltaCT [28]: 1.99
C[C@H]1c2cccc(O)c2C(=O)C2=C(O)[C@]3(O)C(=O)C(C(N)=O)=C(O)[C@@H](N(C)C)[C@@H]3[C@@H](O)[C@@H]21.O [DOXYCYCLINE] | 6 | 5.09 | 7.48 | 6.28 | 6.46 | 7.97 | 8.2 | 7.2 | 8.22 | 8.18 | 7.88 | 7.81 | 9.67 | 6.61 | 6.95 | 6.94 | 0.56 | 6.32 | 7.86 | 6.56 | deltaCT [21]: 6.66; deltaCT [22]: 8.39; deltaCT [23]: 0.45; deltaCT [24]: 7.89; deltaCT [25]: 6.59; deltaCT [26]: 6.61; deltaCT [27]: 0.26; deltaCT [28]: 8.64
